This is a selection; strong and weak results do not stand in their true shares. The source made the active and inactive calls. Rule as the data show it: active = % bound below about 75%; inactive = the rest.
biological target: Nucleoprotein (Rift valley fever virus (strain ZH-548 M12)) (UniProt P21700); experiment: inhibitors of RVFV nucleoprotein–RNA binding, primary screen, biochemical, fluorescence polarization (AID 651828); conditions: RVFV N-RNA binding, hits give low values, concentration not given here

SMILES	% bound
CN1CCC(Nc2ccc(F)cc2)CC1	inactive: 98.2%
CCCN1CCC(Nc2cc(OC)cc(OC)c2)CC1	inactive: 101%
CCN1CCC(Nc2ccc(F)cc2)CC1	inactive: 93.4%
CCCN1CCC(Nc2ccc(OC)c(OC)c2)CC1	inactive: 99.5%
CCOC(=O)N1CCC(Nc2cccc(C)c2)CC1	inactive: 93%
CCOC(=O)N1CCC(Nc2ccc(F)cc2)CC1	inactive: 91.5%
c1ccc(CN2CCC(Nc3ccc4c(c3)OCO4)CC2)cc1	inactive: 99.8%

— PubChem BioAssay AID651828
